The results in this text go back to patent publication US20060246541A1.

For the assay, the target named is GPIIb/IIIa (integrin αIIbβ3), not stated. Description: cell-based or functional assay.

As for Vicrostatin, the IC50, inhibition of ADP-induced platelet aggregation worked out at 60 nM.
